Anti-infective test results gathered from many reports (values: NIAID ChemDB through PubChem).

All rows: tests on isolated targets

Blank or dashed fields: not listed here. Rows are shuffled and stem from different studies. Percent inhibition refers to the dose given; in toxicity tests it is the harm to the cells. a–b is a range or a potency band. ICn is the concentration giving n% inhibition.

structure,target,measure,changes,tested at,species,read by,strain or isolate,value
CCCNC(=O)NCCCCC(C)(C)CN(C[C@@H](O)[C@H](Cc1ccccc1)NC(=O)O[C@H]1CO[C@H]2OCC[C@H]21)S(=O)(=O)c1ccc2c(c1)OCO2,Protease,Ki,,,HIV-1,fluorescence,,<0.001 µM
COC(=O)c1ccc(-c2ccc(NC(=O)CSc3nnnn3-c3ccc(C)cc3Cl)c(Cl)c2)cc1,Reverse transcriptase,IC50,,,HIV-1,PicoGreen / fluorescence,WT,<1 µM
O=C(NC(C(=O)O)C1CCCCC1)c1ccc2c(c1)nc(-c1ccc3nc(-c4ccccc4)cnc3c1)n2C1CCCCC1,NS5B polymerase,inhibition,,100 µM,Hepatitis C virus,,,98.12%
CCCCS(=O)(=O)NCCCCC(C)(C)CN(C[C@@H](O)[C@H](Cc1ccccc1)NC(=O)O[C@H]1CO[C@H]2OCC[C@H]21)S(=O)(=O)c1ccc2c(c1)OCO2,Protease,Ki,,,HIV-1,fluorescence,,<0.001 µM
CCc1ccc(-c2ccc(OC)cc2-c2ccc3cc(-c4nc5cc(C(=O)O)ccc5n4C4CCCCC4)ccc3n2)cc1,NS5B polymerase,inhibition,,100 µM,Hepatitis C virus,,,101%
CC(C)(CCCNC(=O)c1ccc2c(c1)OCO2)CN(C[C@@H](O)[C@H](Cc1ccccc1)NC(=O)O[C@H]1CO[C@H]2OCC[C@H]21)S(=O)(=O)c1ccc2c(c1)OCO2,Protease,Ki,,,HIV-1,fluorescence,,<0.001 µM
CC(C)(C#Cc1ccc(NC(=O)CSc2nnnn2-c2ccc(C3CC3)cc2Cl)c(Cl)c1)NCC1CC1,Reverse transcriptase,IC50,,,HIV-1,PicoGreen / fluorescence,WT,<1 µM
Nc1c(Cl)cc(-c2ccc3cc(-c4nc5cc(C(=O)O)ccc5n4C4CCCCC4)ccc3n2)cc1Cl,NS5B polymerase,inhibition,,100 µM,Hepatitis C virus,,,101%
CC(C)(C)c1ccc(-n2nnnc2SCC(=O)Nc2ccc(NS(=O)(=O)c3cccs3)cc2Cl)c(Cl)c1,Reverse transcriptase,IC50,RT-K103 Y181C,,HIV-1,PicoGreen / fluorescence,,<1 µM
CC(C)(CCCCNC(=O)N1CCCC1)CN(C[C@@H](O)[C@H](Cc1ccccc1)NC(=O)O[C@H]1CO[C@H]2OCC[C@H]21)S(=O)(=O)c1ccc2c(c1)OCO2,Protease,Ki,,,HIV-1,fluorescence,,<0.001 µM
Cc1nnc(SCC(=O)Nc2ccc(OCC(=O)N3CCC(C(=O)O)CC3)cc2Cl)n1-c1ccc(C2CC2)cc1Cl,Reverse transcriptase,IC50,RT-K103 Y181C,,HIV-1,PicoGreen / fluorescence,,<1 µM
COc1ccc(-c2ccc(C(=O)N3CCCC3)cc2-c2ccc3cc(-c4nc5cc(C(=O)O)ccc5n4C4CCCCC4)ccc3n2)cc1OC,NS5B polymerase,inhibition,,33 µM,Hepatitis C virus,,,101%
CNc1cccc(S(=O)(=O)N(C[C@@H](O)[C@H](Cc2ccccc2)NC(=O)O[C@H]2CO[C@H]3OCC[C@H]32)CC(C)(C)CCCCNC(=O)NC(C)C)c1,Protease,Ki,,,HIV-1,fluorescence,,<0.001 µM
O=C(COc1ccc(NC(=O)CSc2nnnn2-c2ccc(C3CC3)cc2Cl)c(Cl)c1)NCCc1cc[n+]([O-])cc1,Reverse transcriptase,IC50,RT-K103 Y181C,,HIV-1,PicoGreen / fluorescence,,<1 µM
Fc1ccc(N2CCN(c3cncc(-c4cc5ccccc5s4)n3)CC2)c(F)c1,UL97 kinase,IC50,,,Cytomegalovirus,,,<10 µM
CC(C)(C#Cc1ccc(NC(=O)CSc2nnnn2-c2cc(C(C)(C)C)ccc2Cl)c(Cl)c1)NC(=O)c1cc[n+]([O-])cc1,Reverse transcriptase,IC50,RT-K103 Y181C,,HIV-1,PicoGreen / fluorescence,,<1 µM
OCc1cccc(-c2cncc(N3CCN(CCN4CCCC4)CC3)n2)c1,UL97 kinase,inhibition,,10 µM,Cytomegalovirus,,,>15%
CC(C)(C)c1ccc(-n2nnnc2SCC(=O)Nc2ccc(NC(=O)CC3CCCC3)cc2Cl)c(Cl)c1,Reverse transcriptase,IC50,RT-K103 Y181C,,HIV-1,PicoGreen / fluorescence,,<1 µM
O=C(NC(Cc1c[nH]c2ccc(O)cc12)C(=O)O)c1ccc2c(c1)nc(-c1ccc3cc(-c4ccccc4)cnc3c1)n2C1CCCCC1,NS5B polymerase,inhibition,,100 µM,Hepatitis C virus,,,100%
O=C(OC1CCCCC1)c1cn2ccn(Cc3cccc(Cl)c3)c(=O)c2c(O)c1=O,Integrase,IC50,,,HIV-1,ELISA,,0.01–0.1 µM
CC(C)(C)c1ccc(-n2nnnc2SCC(=O)Nc2ccc(NC(=O)CCc3ccccc3)cc2Cl)c(Cl)c1,Reverse transcriptase,IC50,,,HIV-1,PicoGreen / fluorescence,WT,<1 µM
CC(C)OC(=O)NCCCCC(C)(C)CN(C[C@@H](O)[C@H](Cc1ccccc1)NC(=O)O[C@H]1CO[C@H]2OCC[C@H]21)S(=O)(=O)c1ccc(N)cc1,Protease,Ki,,,HIV-1,fluorescence,,<0.001 µM
NC(=O)CNC(=O)c1ccc(-c2ccc(Cl)cc2)c(-c2ccc3cc(-c4nc5cc(C(=O)O)ccc5n4C4CCCCC4)ccc3n2)c1,NS5B polymerase,inhibition,,100 µM,Hepatitis C virus,,,98.71%
CCOC(=O)NCC(=O)NCCCC(C)(C)CN(C[C@@H](O)[C@H](Cc1ccccc1)NC(=O)O[C@H]1CO[C@H]2OCC[C@H]21)S(=O)(=O)c1ccc2c(c1)OCO2,Protease,Ki,,,HIV-1,fluorescence,,<0.001 µM
O=C1c2c(O)c(=O)c(-c3ccccn3)cn2CCN1Cc1ccc(F)cc1,Integrase,IC50,,,HIV-1,ELISA,,0.01–0.1 µM
CC(C)(C#Cc1ccc(NC(=O)CSc2nnnn2-c2ccc(C3CC3)cc2Cl)c(Cl)c1F)OCCN1CCNCC1,Reverse transcriptase,IC50,,,HIV-1,PicoGreen / fluorescence,WT,<1 µM
C#CCOC(=O)NCCC(C)(C)CN(C[C@@H](O)[C@H](Cc1ccccc1)NC(=O)O[C@H]1CO[C@H]2OCC[C@H]21)S(=O)(=O)c1ccc2c(c1)OCO2,Protease,Ki,,,HIV-1,fluorescence,,<0.001 µM
Cc1ccc(-n2nnnc2SCC(=O)Nc2ccc(-c3cccc(C(=O)O)c3)cc2Cl)c(Cl)c1,Reverse transcriptase,IC50,RT-K103 Y181C,,HIV-1,PicoGreen / fluorescence,,<1 µM
COc1ccc(-c2ccc(O)cc2)c(-c2ccc3cc(-c4nc5cc(C(=O)O)ccc5n4C4CCCCC4)ccc3n2)c1,NS5B polymerase,inhibition,,100 µM,Hepatitis C virus,,,98.24%
CC(C)(C#Cc1ccc(NC(=O)CSc2nnnn2-c2cccc(Cl)c2Cl)c(Cl)c1)C(=O)O,Reverse transcriptase,IC50,,,HIV-1,PicoGreen / fluorescence,WT,<1 µM
COc1ccc(S(=O)(=O)N(C[C@@H](O)[C@H](Cc2ccccc2)NC(=O)O[C@H]2CO[C@H]3OCC[C@H]32)CC(C)(C)CCN)cc1,Protease,Ki,,,HIV-1,fluorescence,,<0.001 µM
COc1ccc(-c2ccc(Cl)cc2)c(-c2ccc3cc(-c4nc5cc(C(=O)O)ccc5n4Cc4ccccc4)ccc3n2)c1,NS5B polymerase,inhibition,,33 µM,Hepatitis C virus,,,101%
CC(C)OC(=O)NCCCCC(C)(C)CN(C[C@@H](O)[C@H](Cc1ccccc1)NC(=O)O[C@@H]1CO[C@@H]2OCC[C@@H]21)S(=O)(=O)c1ccc(N)cc1,Protease,Ki,,,HIV-1,fluorescence,,<0.001 µM
O=C(Nc1cn2ccn(Cc3cccc(Cl)c3)c(=O)c2c(O)c1=O)c1ccc(F)cc1,Integrase,IC50,,,HIV-1,ELISA,,<0.01 µM
CC(C)(C)c1ccc(-n2nnnc2SCC(=O)Nc2ccc(OCC(=O)NN3CCOCC3)cc2Cl)c(Cl)c1,Reverse transcriptase,IC50,RT-K103 Y181C,,HIV-1,PicoGreen / fluorescence,,<1 µM
CN(C)C(=O)c1cn2c(c(O)c1=O)C(=O)N(Cc1cccc(Cl)c1)CC2,Integrase,IC50,,,HIV-1,ELISA,,0.01–0.1 µM
O=C(O)Cc1ccc(-c2ccc(NC(=O)CSc3nnnn3-c3ccc(C(F)(F)F)cc3Cl)c(Cl)c2)cc1,Reverse transcriptase,IC50,RT-K103 Y181C,,HIV-1,PicoGreen / fluorescence,,<1 µM
CC(C)(CCCNC(=O)c1ccco1)CN(C[C@@H](O)[C@H](Cc1ccccc1)NC(=O)O[C@H]1CO[C@H]2OCC[C@H]21)S(=O)(=O)c1ccc2c(c1)OCO2,Protease,Ki,,,HIV-1,fluorescence,,<0.001 µM
CCOc1ccccc1-c1cncc(N2CCN(c3ccc(C)cc3)CC2)n1,UL97 kinase,IC50,,,Cytomegalovirus,,,<100 µM
O=c1ccn2ccn(Cc3ccc(Cl)c(Cl)c3)c(=O)c2c1O,Integrase,IC50,,,HIV-1,ELISA,,<0.01 µM
CN(C)C(=O)NCCCC(C)(C)CN(C[C@@H](O)[C@H](Cc1ccccc1)NC(=O)O[C@H]1CO[C@H]2OCC[C@H]21)S(=O)(=O)c1cccc2c1OCCO2,Protease,Ki,,,HIV-1,fluorescence,,<0.001 µM
CN(C)CCCC(=O)NC(C)(C)C#Cc1ccc(NC(=O)CSc2nnnn2-c2ccc(C3CC3)cc2Cl)c(Cl)c1F,Reverse transcriptase,IC50,RT-K103 Y181C,,HIV-1,PicoGreen / fluorescence,,<1 µM
CC(C)Oc1cc(Cl)ccc1CN1CCn2cc(-c3nccs3)c(=O)c(O)c2C1=O,Integrase,IC50,,,HIV-1,ELISA,,0.01–0.1 µM
CCCS(=O)(=O)NCCC(C)(C)CN(C[C@@H](O)[C@H](Cc1ccccc1)NC(=O)O[C@H]1CO[C@H]2OCC[C@H]21)S(=O)(=O)c1ccc2c(c1)OCO2,Protease,Ki,,,HIV-1,fluorescence,,<0.001 µM
Fc1ccc(-c2cncc(N3CCN(c4ccc(Cl)c(Cl)c4)CC3)n2)cc1,UL97 kinase,IC50,,,Cytomegalovirus,,,<100 µM
CC(C)(C)c1ccc(-n2nnnc2SCC(=O)Nc2ccc(NC(=O)Cc3cccc([N+](=O)[O-])c3)cc2Cl)c(Cl)c1,Reverse transcriptase,IC50,,,HIV-1,PicoGreen / fluorescence,WT,<1 µM
CC(C)(CCN)CN(C[C@@H](O)[C@H](Cc1ccccc1)NC(=O)O[C@H]1CO[C@H]2OCC[C@H]21)S(=O)(=O)c1ccc2c(c1)OCO2,Protease,Ki,,,HIV-1,fluorescence,,<0.001 µM
CC(C)(C#Cc1ccc(NC(=O)CSc2nnnn2-c2ccc(C(C)(C)C)cc2Cl)c(Cl)c1)OCC(=O)NCCO,Reverse transcriptase,IC50,,,HIV-1,PicoGreen / fluorescence,WT,<1 µM
Cc1cc(-c2ccccc2)nc2ccc(-c3nc4cc(C(=O)O)ccc4n3C3CCCCC3)cc12,NS5B polymerase,inhibition,,33 µM,Hepatitis C virus,,,98.48%
Cc1cccc(-c2cncc(N3CCN(c4cccc(C(F)(F)F)c4)CC3)n2)c1,UL97 kinase,inhibition,,10 µM,Cytomegalovirus,,,>15%
CC(C)(C)c1ccc(-n2nnnc2SCC(=O)Nc2ccc(OCC(=O)Nc3ccc(N4CCOCC4)cc3)cc2Cl)c(Cl)c1,Reverse transcriptase,IC50,,,HIV-1,PicoGreen / fluorescence,WT,<1 µM
OCc1ccc(-c2cncc(N3CCN(c4ccc(F)cc4F)CC3)n2)cc1,UL97 kinase,IC50,,,Cytomegalovirus,,,<100 µM
CC(C)(C)c1ccc(-n2nnnc2SCC(=O)Nc2ccc(S(=O)(=O)NCCc3ccccc3)cc2Cl)c(Cl)c1,Reverse transcriptase,IC50,,,HIV-1,PicoGreen / fluorescence,WT,<1 µM
O=c1c(-c2ccccc2)cn2c(CC3CCCCC3)cn(Cc3cccc(Cl)c3)c(=O)c2c1O,Integrase,IC50,,,HIV-1,ELISA,,0.1–1 µM
CC(=O)c1ccc(-c2cncc(N3CCN(c4ccc(F)cc4F)CC3)n2)cc1,UL97 kinase,IC50,,,Cytomegalovirus,,,<10 µM
Cc1cc(C)c(-n2nnnc2SCC(=O)Nc2ccc(C#CC(C)(C)O)cc2Cl)c(Cl)c1,Reverse transcriptase,IC50,RT-K103 Y181C,,HIV-1,PicoGreen / fluorescence,,<1 µM
CNC(=O)NCCCC(C)(C)CN(C[C@@H](O)[C@H](Cc1ccccc1)NC(=O)O[C@H]1CO[C@H]2OCC[C@H]21)S(=O)(=O)c1ccc(OC)cc1,Protease,Ki,,,HIV-1,fluorescence,,<0.001 µM
CC(=O)Nc1cn2ccn(Cc3ccc(F)cc3)c(=O)c2c(O)c1=O,Integrase,IC50,,,HIV-1,ELISA,,0.01–0.1 µM
CSc1ccccc1-c1cncc(N2CCN(c3ccncc3)CC2)n1,UL97 kinase,IC50,,,Cytomegalovirus,,,<100 µM
O=C(Nc1cn2ccn(Cc3cccc(Cl)c3)c(=O)c2c(O)c1=O)c1ccccn1,Integrase,IC50,,,HIV-1,ELISA,,<0.01 µM
CCOC(=O)NCCC(C)(C)CN(C[C@@H](O)[C@H](Cc1ccccc1)NC(=O)O[C@H]1CO[C@H]2OCC[C@H]21)S(=O)(=O)c1cccc(N)c1,Protease,Ki,,,HIV-1,fluorescence,,<0.001 µM

6 of the rows above, restated:

| structure | target | measure | changes | tested at | species | read by | strain or isolate | value |
|---|---|---|---|---|---|---|---|---|
| CSc1ccccc1-c1cncc(N2CCN(c3ccncc3)CC2)n1 | UL97 kinase | IC50 |  |  | Cytomegalovirus |  |  | <100 µM |
| CC(C)(C#Cc1ccc(NC(=O)CSc2nnnn2-c2ccc(C3CC3)cc2Cl)c(Cl)c1F)OCCN1CCNCC1 | Reverse transcriptase | IC50 |  |  | HIV-1 | PicoGreen / fluorescence | WT | <1 µM |
| CC(C)Oc1cc(Cl)ccc1CN1CCn2cc(-c3nccs3)c(=O)c(O)c2C1=O | Integrase | IC50 |  |  | HIV-1 | ELISA |  | 0.01–0.1 µM |
| CC(C)(C#Cc1ccc(NC(=O)CSc2nnnn2-c2ccc(C(C)(C)C)cc2Cl)c(Cl)c1)OCC(=O)NCCO | Reverse transcriptase | IC50 |  |  | HIV-1 | PicoGreen / fluorescence | WT | <1 µM |
| CC(C)(CCCNC(=O)c1ccco1)CN(C[C@@H](O)[C@H](Cc1ccccc1)NC(=O)O[C@H]1CO[C@H]2OCC[C@H]21)S(=O)(=O)c1ccc2c(c1)OCO2 | Protease | Ki |  |  | HIV-1 | fluorescence |  | <0.001 µM |
| O=C(Nc1cn2ccn(Cc3cccc(Cl)c3)c(=O)c2c(O)c1=O)c1ccccn1 | Integrase | IC50 |  |  | HIV-1 | ELISA |  | <0.01 µM |